Experimental findings from EP0392666A2, “Anti-HIV compositions” (JOHNSON MATTHEY PUBLIC LIMITED COMPANY, priority 1989, dated 1990) are described below.

The data set has as its system MT-4 cells. Nature of the data set: Cytotoxicity by MTT method in MT-4 cells. To be noted: HIV-1, 5 days culture at 37°C.

The substance [Cu cyclam]Cl₂ [X, reference compound] had a CD₅₀ of 75.3 µg/mL.
For “c-[Rh cyclam (NO₂)₂]Cl [reference compound]”, the CD₅₀ is more than 250 µg/mL.
